A mixed list of measured activities; the numbers were collected in NIAID ChemDB.

All rows: whole-cell or culture tests

For "inactive" no cut-off is given. Two numbers with a dash give a range or band. Percent inhibition refers to the dose given; in toxicity tests it is the harm to the cells. ECn is the concentration giving n% inhibition of infection, replication or growth. A number after MIC or MFC names an inhibition level or a share of isolates. Conditions beyond the fields shown may differ between rows. An empty or dashed field is not shown.

compound,strain or isolate,cells,dose,mutations,conditions,agent,measure,method,result
C(#Cc1ccc(C#Cc2ccccc2)s1)c1ccccc1,,3T3-L1,,,,Mouse cytomegalovirus,EC50,plaque count,0.094 µg/mL
NC(=O)c1ncn([C@@H]2O[C@H](CO)[C@@H](O)[C@H]2O)n1,COAN3739,VERO 76,,,,Pichinde virus,EC50,plaque count,60 µg/mL
NC(=O)c1ncn([C@@H]2O[C@H](CO)[C@@H](O)[C@H]2O)n1,Yamagata-1,VERO,,,,Measles virus,EC50,plaque count,8.7 µg/mL
CC1COP(=O)(CO[C@H](C)Cn2cnc3c(N)ncnc32)OC1,Genotype D,PHH,1 µM,,,Hepatitis B virus,inhibition,PCR,30–50%
O=c1[nH]cnc2c([C@@H]3O[C@H](CO)[C@@H](O)[C@H]3O)[nH]nc12,,,1 µg/mL,,,Pneumocystis carinii,inhibition,,inactive
COC(=O)/C=C/C#Cc1cccs1,,3T3-L1,,,,Mouse cytomegalovirus,EC50,plaque count,>1 µg/mL
COC(=O)N[C@H](C(=O)N1CCC[C@H]1c1ncc(-c2ccc(-c3ccc(-c4cnc([C@@H]5CCCN5C(=O)[C@@H](NC(=O)OC)C(C)C)[nH]4)cc3)cc2)[nH]1)C(C)C,SA13,Huh7.5,,,,Hepatitis C virus,EC50,antigen,0.00009 µM
CO[C@@H]1C[C@@H](C[C@H]2CC[C@H](C)[C@H]([C@@H](C)C(=O)O)O2)O[C@]2(O[C@](C)([C@H]3CC[C@@](C)([C@@H]4O[C@@H]([C@H]5O[C@@](O)(CO)[C@H](C)C[C@@H]5C)C[C@@H]4C)O3)C[C@H]2C)[C@@H]1C,Calf isolate,L929,0.8 µg/mL,,,Cryptosporidium parvum,inhibition,,66.14%
NC(=O)c1ncn([C@@H]2O[C@H](CO)[C@@H](O)[C@H]2O)c1O,ECXH-3,VERO,,,,Mumps virus,EC50,plaque count,30.2 µg/mL
NC[C@@H]1O[C@H](O[C@H]2[C@@H](O)[C@H](O[C@@H]3[C@@H](O)[C@H](N)C[C@H](N)[C@H]3O[C@H]3O[C@H](CO)[C@@H](O)[C@H](O)[C@H]3N)O[C@@H]2CO)[C@H](N)[C@@H](O)[C@@H]1O,,,100 µg/mL,,,Cryptosporidium parvum,inhibition,,62%
COC(=O)[C@H](C)NP(=O)(OC[C@H]1C/C1=C/n1cnc2c(=O)[nH]c(N)nc21)Oc1ccccc1,,MEF,,,,Mouse cytomegalovirus,EC50,plaque count,3.3 µM
Nc1ncnc2c1ncn2C[C@@H](CO)OCP(=O)(O)O,LONG,HeLa,,,,Respiratory syncytial virus,EC50,cytopathic effect,>125 µg/mL
C(#Cc1ccc(-c2cccs2)s1)c1ccccc1,,3T3-L1,,,,Mouse cytomegalovirus,EC50,plaque count,0.004 µg/mL
Nc1ccn([C@@H]2C[C@H](CO)[C@@H](O)[C@H]2O)c(=O)n1,58-8,HeLa,,,,Respiratory syncytial virus,EC50,cytopathic effect,35.5 µg/mL
CN(C)[C@@H]1C(=O)C(C(N)=O)=C(O)[C@@]2(O)C(=O)C3=C(O)c4c(O)cccc4[C@@](C)(O)[C@H]3[C@H](O)[C@@H]12,Calf isolate,L929,0.8 µg/mL,,,Cryptosporidium parvum,inhibition,,20.19%
Nc1nc2c(ncn2COCCOCP(=O)(O)O)c(=O)[nH]1,Ganciclovir-resistant,C1271,,,,Mouse cytomegalovirus,EC50,plaque count,11.2 µM
CC(C)CCCC(C)C1CCC2C3CC=C4CC(OC(=O)Nc5cc(S(=O)(=O)O)cc6cc(S(=O)(=O)O)cc(O)c56)CC[C@]4(C)C3CC[C@]12C,Singapore/222/79,MDCK,,,,Influenza B virus,EC50,cytopathic effect,>200 µM
NC12CC3CC(CC(C3)C1)C2,Kitaken-1,VERO,,,,Measles virus,EC50,plaque count,130 µg/mL
Cc1cn([C@@H]2C[C@@H](O)[C@H](CO)O2)c(=O)[nH]c1=O,,PDH,,,,Duck hepatitis B virus,EC50,,0.054 µM
COc1nc(N)nc2c1ncn2C=C1CC1CO,,MEF,,,,Mouse cytomegalovirus,EC50,plaque count,0.4 µM
C#C[C@]1(CO)O[C@@H](n2cnc3c(N)nc(F)nc32)CC1O,ROD9,MAGIC-5A,,K65R Q151M M184V,,HIV-2,EC50,β-galactosidase / absorbance,0.0062 µM
NC(=O)c1[nH]nc([C@@H]2O[C@H](CO)[C@@H](O)[C@H]2O)c1O,Kitaken-1,VERO,,,,Measles virus,EC50,plaque count,0.16 µg/mL
Nc1nc2c(ncn2COCCO)c(=O)[nH]1,Ganciclovir-resistant,C1271,,,,Mouse cytomegalovirus,EC50,plaque count,5.9 µM
C(#Cc1cc2ccccc2s1)c1ccsc1,,3T3-L1,,,,Mouse cytomegalovirus,EC50,plaque count,0.187 µg/mL
Nc1ccn([C@@H]2C[C@H](CO)[C@@H](O)[C@H]2O)c(=O)n1,,PRK,,,,Vesicular stomatitis virus,EC50,cytopathic effect,4 µg/mL
O=c1c(O)c(-c2ccc(O)c(O)c2)oc2cc(O)cc(O)c12,SA-11,VERO,,,,Rotavirus A,EC50,,<60 µg/mL
CCOC(=O)CC1COP(=O)(CO[C@H](C)Cn2cnc3c(N)ncnc32)OC1,Genotype D,HepaRG,1 µM,,,Hepatitis B virus,inhibition,PCR,≤30%
Cc1cn([C@H]2C[C@H](N=[N+]=[N-])[C@@H](CO)O2)c(=O)[nH]c1=O,,,10 µg/mL,,,Cryptosporidium parvum,inhibition,,12%
CCCCc1cc2c(=O)c(C(=O)OC)c[nH]c2cc1OCc1ccccc1,Calf isolate,L929,0.8 µg/mL,,,Cryptosporidium parvum,inhibition,,44%
C(C#Cc1ccccc1)#Cc1ccccc1,,3T3-L1,,,,Mouse cytomegalovirus,EC50,plaque count,0.75 µg/mL
Nc1ccc(S(=O)(=O)O)c2cccc(S(=O)(=O)O)c12,Singapore/222/79,MDCK,,,,Influenza B virus,EC50,cytopathic effect,>200 µM
NC(=O)c1[nH]nc([C@@H]2O[C@H](CO)[C@@H](O)[C@H]2O)c1O,S-2,HeLa,,,,Respiratory syncytial virus,EC50,cytopathic effect,0.02 µg/mL
C[C@@]1(O)[C@H](O)[C@@H](CO)O[C@H]1n1ccc2c(N)ncnc21,,Hep3B-T5B,10 µg/mL,,,Hepatitis C virus,inhibition,MTT,1.01%
Nc1ncnc2c1ncn2CCOCP(=O)(O)O,Foscarnet-resistant,C1271,,,,Mouse cytomegalovirus,EC50,plaque count,11.1 µM
Nc1ncnc2c1ncn2Cc1c(F)cccc1Cl,Calf isolate,L929,0.032 µg/mL,,,Cryptosporidium parvum,inhibition,,19.66%
Nc1ccn([C@@H]2C[C@@H](O)[C@H](CO)O2)c(=O)n1,,PDH,,,,Duck hepatitis B virus,EC50,,0.0007 µM
Nc1ncnc2c1ncn2CCOCP(=O)(O)O,Oka CF1742-resistant,HEL,,,,Varicella zoster virus,EC50,cytopathic effect,13.7 µM
c1csc(-c2ccc(-c3cccs3)o2)c1,,3T3-L1,,,,Mouse cytomegalovirus,EC50,plaque count,0.5 µg/mL
CCNc1cccnc1N1CCN(C(=O)c2cc3cc(OC)ccc3[nH]2)CC1,Seropositive clinical isolate C,PBMC,1 µM,,,HIV-1,inhibition,MTT,63%
Nc1ccn([C@@H]2C[C@H](CO)[C@@H](O)[C@H]2O)c(=O)n1,Niigata-1,VERO,,,,Measles virus,EC50,plaque count,0.95 µg/mL
COc1ccc2c(O[C@@H]3C[C@H]4C(=O)N[C@]5(C(=O)NS(=O)(=O)C6CC6)C[C@H]5/C=C\CCCCN(C)C(=O)[C@@H]4C3)cc(-c3nc(C(C)C)cs3)nc2c1C,S52,Huh7.5,,,,Hepatitis C virus,EC50,antigen,1.988 µM
Nc1cc2[nH]cnc2c(=O)[nH]1,58-17,HeLa,,,,Respiratory syncytial virus,EC50,cytopathic effect,2 µg/mL
O=c1c(O)c(-c2ccc(O)c(O)c2)oc2cc(O)cc(O)c12,Clinical isolate 2,,,,,Candida tropicalis,MIC50,broth dilution,>128 µg/mL
c1ccc2c(c1)CSSC2,clone 55 (RD3-0028-resistant),HeLa,,,,Respiratory syncytial virus,EC50,cytopathic effect,>244.4 µM
COc1cc([C@@H]2c3cc4c(cc3[C@@H](O[C@@H]3O[C@@H]5CO[C@@H](c6cccs6)O[C@H]5[C@H](O)[C@H]3O)[C@H]3COC(=O)[C@H]23)OCO4)cc(OC)c1O,,,10 µg/mL,,7 d,Pneumocystis carinii,inhibition,,72%
C[C@H](Cn1cnc2c(N)ncnc21)OCP(=O)(O)O,Genotype D,PHH,1 µM,,,Hepatitis B virus,inhibition,PCR,≤30%
O=c1c(O)c(-c2ccccc2)oc2cc(O)cc(O)c12,SA-11,VERO,,,,Rotavirus A,EC50,,>15 µg/mL
Nc1nc2c(ncn2COC(COCP(=O)(O)O)COCP(=O)(O)O)c(=O)[nH]1,HPMPC-resistant,C1271,,,,Mouse cytomegalovirus,EC50,plaque count,3.7 µM
C[C@H](Cn1cnc2c(N)ncnc21)OCP1(=O)OCC(CCC(=O)OC2CCCC2)CO1,Genotype D,PHH,1 µM,,,Hepatitis B virus,inhibition,PCR,30–50%
N=C(N)c1ncn([C@@H]2O[C@H](CO)[C@@H](O)[C@H]2O)n1,B/HONG KONG/5/72,MDCK,5 µg/mL,,,Influenza B virus,inhibition,virus yield,90%
CC(C)CNC(=O)C=CC#Cc1cccs1,,3T3-L1,,,,Mouse cytomegalovirus,EC50,plaque count,>1 µg/mL
CC(C)CCCC(C)C1CCC2C3CC=C4CC(OC(=O)Nc5ccc(S(=O)(=O)O)c6cccc(S(=O)(=O)O)c56)CCC4(C)C3CCC12C,Singapore/222/79,MDCK,,,,Influenza B virus,EC50,cytopathic effect,>200 µM
C#Cc1ccc(-c2ccccc2)s1,,3T3-L1,,,,Mouse cytomegalovirus,EC50,plaque count,>1 µg/mL
CCCc1ncc(C[n+]2ccccc2C)c(N)n1,Calf isolate,L929,4 µg/mL,,,Cryptosporidium parvum,inhibition,,39.22%
O=C(O)P(=O)(O)O,,,10 µg/mL,,,Cryptosporidium parvum,inhibition,,1%
CC(C)CCCC(C)C1CCC2C3CC=C4CC(OC(=O)Nc5ccc(S(=O)(=O)O)c6ccccc56)CCC4(C)C3CCC12C,Singapore/222/79,MDCK,,,,Influenza B virus,EC50,cytopathic effect,>200 µM
C#CC[C@@H](C(=O)N[C@H](/C=C/C(=O)OCC)C[C@@H]1CCNC1=O)n1cccc(NC(=O)c2cc(C)on2)c1=O,Serotype 36,H1-HELA,,,,Rhinovirus,EC50,cytopathic effect / XTT,0.011 µM
O=C(C[C@H]1NCCC[C@@H]1O)Cn1cnc2cc(Br)c(Cl)cc2c1=O,Calf isolate,L929,0.032 µg/mL,,,Cryptosporidium parvum,inhibition,,64.74%
Nc1ncnc2c1ncn2CCOCP(=O)(O)O,Genotype D,HepaRG,1 µM,,,Hepatitis B virus,inhibition,PCR,50–80%
O=c1cnn([C@@H]2O[C@H](CO)[C@@H](O)[C@H]2O)c(=O)[nH]1,Sugiyama,VERO,,,,Measles virus,EC50,plaque count,0.66 µg/mL

A second listing of 7 rows from above:

NC(=O)c1ncn([C@@H]2O[C@H](CO)[C@@H](O)[C@H]2O)n1 ; strain or isolate: Yamagata-1 ; cells: VERO ; agent: Measles virus ; measure: EC50 ; method: plaque count ; result: 8.7 µg/mL
Nc1ncnc2c1ncn2CCOCP(=O)(O)O ; strain or isolate: Oka CF1742-resistant ; cells: HEL ; agent: Varicella zoster virus ; measure: EC50 ; method: cytopathic effect ; result: 13.7 µM
CC(C)CNC(=O)C=CC#Cc1cccs1 ; cells: 3T3-L1 ; agent: Mouse cytomegalovirus ; measure: EC50 ; method: plaque count ; result: >1 µg/mL
NC12CC3CC(CC(C3)C1)C2 ; strain or isolate: Kitaken-1 ; cells: VERO ; agent: Measles virus ; measure: EC50 ; method: plaque count ; result: 130 µg/mL
C(C#Cc1ccccc1)#Cc1ccccc1 ; cells: 3T3-L1 ; agent: Mouse cytomegalovirus ; measure: EC50 ; method: plaque count ; result: 0.75 µg/mL
Nc1ncnc2c1ncn2CCOCP(=O)(O)O ; strain or isolate: Genotype D ; cells: HepaRG ; dose: 1 µM ; agent: Hepatitis B virus ; measure: inhibition ; method: PCR ; result: 50–80%
COc1nc(N)nc2c1ncn2C=C1CC1CO ; cells: MEF ; agent: Mouse cytomegalovirus ; measure: EC50 ; method: plaque count ; result: 0.4 µM